The assay concerns the target His-tagged MPER peptide (HIV-1). Description: BLI, His-tagged target on Ni-NTA. A general note: In BLI a coated tip is dipped into the sample, and binding shifts an interference pattern.

Broadly, the Kd is the constant that tells how readily two partners part at equilibrium. Read a high Kd as a looser complex. The koff is the first-order rate constant of dissociation. Low values mean slow dissociation, high ones fast dissociation. Usually kon stands for the second-order rate constant of association.

As for T-01 MB IgG1 I253A, the dissociation constant Kd is less than 1 pM, the koff is less than 1e-07 s⁻¹ and the on-rate constant (kon) was found to be 421000 M⁻¹ s⁻¹.

Turning to T-01 MB IgG1 LALAP I253A, the equilibrium dissociation constant (Kd) was less than 1 pM, the koff is less than 1e-07 s⁻¹ and the kon came out at 225000 M⁻¹ s⁻¹.

Substance T-01 MB.v2 IgG1 M428L N434S (LS) showed a Kd of less than 1 pM, an off-rate constant (koff) of less than 1e-07 s⁻¹ and a kon of 180000 M⁻¹ s⁻¹.

These data come from US20250276070A1.
